According to PubChem BioAssay AID1430 (University of Pittsburgh Molecular Library Screening Center, 2008):
Values joined by “and” are separate entries in the source; they are usually repeats but may differ in a detail not shown here. Identical values can stand only once. This is a selection; strong and weak results do not stand in their true shares. Active and inactive are the calls of the source.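 The calls were made as follows: active = inhibition of 50% or more in the single-dose primary screen; inactive = inhibition below 50%.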

system: hexokinase 1 [Trypanosoma brucei]; assay: Trypanosoma brucei hexokinase 1 inhibitors, primary screen, biochemical, G6PDH-coupled NADH absorbance, MLSCN library (AID 1430); details: recombinant TbHK1, G6PDH-coupled NADH A340; at 10 µM; hits give high values

Row | Structure (SMILES) | inhibition
1 | Cc1ccc(N/C(=N/P(=O)(N2CCOCC2)N2CCOCC2)N2CCOCC2)cc1 | inactive: -4.04%
2 | NC(=O)c1cc([N+](=O)[O-])cc([N+](=O)[O-])c1N | inactive: -35.4%
3 | CN1CCCC(OC(=O)C(c2ccccc2)c2ccccc2)C1 (stereo not drawn) | inactive: 3.73%
4 | Clc1ccc(Cl)c(NC2=NCC(CBr)S2)c1 (stereo not drawn) | inactive: 2.88%
5 | COc1ccccc1OP(=O)(Nc1ccc(C)cn1)Oc1ccccc1OC | inactive: -4.79%
6 | Cc1ccc(OP(=O)(Nc2nccs2)Oc2ccc(C)cc2)cc1 | inactive: -5.44%
7 | Oc1ccccc1CNc1ccccn1 | inactive: -0.255%
8 | O=C(NC(Sc1ccncn1)C(Cl)(Cl)Cl)c1ccccc1 (stereo not drawn) | inactive: -1.27%
9 | Cc1c2non([O-])c-2c(C)[n+](=O)[n+]1[O-] | inactive: -10.6%
10 | Nc1cc(N)c2nonc2c1[N+](=O)[O-] | inactive: -32.5%
11 | CC(C)CC(=O)NC(Sc1ccc(Cl)cc1)C(Cl)(Cl)Cl (stereo not drawn) | inactive: -1.36%
12 | O=P(Nc1nc2ccc(Cl)cc2s1)(c1ccccc1)c1ccccc1 | inactive: -2.02%
13 | CC(=O)Nc1ccc([As](=O)(O)O)cc1 | inactive: -4.56%
14 | O=C(O)c1ccccc1[As](=O)(O)O | inactive: -8.95%
15 | Cc1cc(SC(NC(=O)c2ccc(F)cc2)C(Cl)(Cl)Cl)ncn1 (stereo not drawn) | inactive: -1.88%
16 | CCOP(=O)(Nc1ccccc1)OCC | inactive: 5.92% and inactive: -5.79%
17 | Cc1ccc(NP(=O)(Oc2ccccc2F)Oc2ccccc2F)nc1 | inactive: -0.509%
18 | Nc1cccc2ccc([As](=O)(O)O)cc12 | inactive: -23.9%
19 | CCN(N=Nc1nonc1N)c1nonc1N | inactive: 9.34%
20 | O=C(Nc1cc([As](=O)(O)O)ccc1O)c1ccccc1 | inactive: -6.32%
21 | O=[N+]([O-])c1ncn(CCn2ncnc2[N+](=O)[O-])n1 | inactive: 3.14%
22 | CC(C)(C)C(=O)NC(Sc1ccncn1)C(Cl)(Cl)Cl (stereo not drawn) | inactive: -7.35%
23 | O=C(O)CNc1ccc([As](=O)(O)O)cc1 | inactive: 2.68%
24 | O=[N+]([O-])c1cccc(NC2=NCC(CBr)S2)c1 (stereo not drawn) | inactive: -1.85%
25 | COc1ccc(C2=NCC(CBr)S2)cc1 (stereo not drawn) | inactive: 0.816%
26 | Cc1ccc(NP(=O)(Oc2ccccc2)Oc2ccccc2)nc1 | inactive: -3.32%

Row | Structure (SMILES) | inhibition
27 | CCc1nc2c(n1)c1c(non1O)c1c2no[n+]1[O-] | inactive: -21%
28 | O=[N+]([O-])c1cc([N+](=O)[O-])c(CCNc2ccccc2)c([N+](=O)[O-])c1 | inactive: 0.662%
29 | O=[N+]([O-])c1cccc2n[nH]nc12 | inactive: 2.5%
30 | CC(=O)N1C2C3N(C(C)=O)C1C1N(C(C)=O)C(C(N1C(C)=O)N3C(C)=O)N2C(C)=O | inactive: 0.728%
31 | CCN(/C(=N/P(=O)(N1CCOCC1)N1CCOCC1)N1CCOCC1)c1ccc(OC)cc1 | inactive: -0.165%
32 | Nc1ccc([As](=O)(O)c2ccc(N)cc2)cc1 | inactive: -9.21%
33 | C[N+]1=C2C=CC=CC=C2SC12C([N+](=O)[O-])=CC([N+](=O)[O-])=C[C-]2[N+](=O)[O-] (stereo not drawn) | inactive: -1.95%
34 | CC1CCN(C(=O)Oc2c(Cl)cc(Cl)c3cccnc23)CC1 | inactive: 1.38%
35 | CC(C)=N/N=C(\N)N[N+](=O)[O-] | inactive: -2.46%
36 | CN(C)C(=O)OCCc1n(C)cc[n+]1C | inactive: 4.16%
37 | CC(C)C(=O)NC(Sc1ccccc1)C(Cl)(Cl)Cl (stereo not drawn) | inactive: 0.524%
38 | O=P(Nc1nccs1)(c1ccccc1)c1ccccc1 | inactive: 5.11%
39 | c1nnnn1CCn1cnnn1 | inactive: -1.65%
40 | O=P(Nc1ccccn1)(c1ccc(Br)cc1)c1ccc(Br)cc1 | inactive: -8.51%
41 | O=P(Nc1nc2ccccc2s1)(c1ccccc1)c1ccccc1 | inactive: -9.37%
42 | C[C@H]1OP(=O)(Oc2ccccc2)[C@H](O)[C@H](O)[C@H]1N=[N+]=[N-] (stereo partly drawn) | inactive: 7.11%
43 | O=[As](O)(c1ccccc1)c1ccc(O)cc1 | inactive: 13.6%
44 | O=[N+]([O-])c1ncn(CCn2cnc([N+](=O)[O-])n2)n1 | inactive: -12.8%
45 | CC(=O)NC(SC(=S)N(C)C)C(Cl)(Cl)Cl (stereo not drawn) | inactive: -1.26%
46 | O=C(OC1CN2CCC1CC2)c1cccc(Cl)c1 (stereo not drawn) | inactive: 2.22%
47 | C(Cc1nn[nH]n1)Cc1nn[nH]n1 | inactive: -1.56%
48 | Nc1ccc([As](=O)(O)c2ccc([N+](=O)[O-])cc2)cc1 | inactive: -8.17%
49 | c1ccc(-c2nn[nH]n2)c(-c2nn[nH]n2)c1 | inactive: -1.39%
50 | CCOC(=O)NC(Sc1ccccc1)C(Cl)(Cl)Cl (stereo not drawn) | inactive: 2.63%
51 | Cc1ccc(NP(=O)(Oc2cccc(C)c2)Oc2cccc(C)c2)nc1 | inactive: -6.03%
52 | CCNC(=S)/N=C(\N)N[N+](=O)[O-] | inactive: -8.45%

Row | Structure (SMILES) | inhibition
53 | O=C(NC1CCS(=O)(=O)C1)NP(=S)(Oc1ccccc1)Oc1ccccc1 (stereo not drawn) | inactive: -4.82%
54 | CCC(=O)N1C2C3N(C(=O)CC)C1C1N(C(=O)CC)C(C(N1C(=O)CC)N3C(=O)CC)N2C(=O)CC | inactive: 0.66%
55 | COC(=O)c1cc2c(s1)N=C(c1ccccc1)N(C)P2(=O)N1CCOCC1 (stereo not drawn) | inactive: -32.5%
56 | Cc1ccc(OP(=O)(Nc2ccccn2)Oc2ccc(C)cc2)cc1 | inactive: -3.55%
57 | CC(=O)NC(SC(=S)N(CC(C)C)CC(C)C)C(Cl)(Cl)Cl (stereo not drawn) | inactive: 1.26%
58 | Cc1ccccc1OP(=O)(Nc1ccccn1)Oc1ccccc1C | inactive: -1.36%
59 | O=c1c2cc([N+](=O)[O-])ccc2[nH]c2c([N+](=O)[O-])cc([N+](=O)[O-])cc12 | inactive: 0.278%
60 | CN(C)C(=O)Oc1noc2ccccc12 | inactive: -1.96%
61 | O=P1(Nc2nc3ccc(Cl)cc3s2)COc2ccccc2O1 (stereo not drawn) | inactive: -3.7%
62 | CCOc1ccc(C2=NCC(CBr)S2)cc1 (stereo not drawn) | inactive: 11.7%
63 | CC(C)(C)C(=O)NC(Sc1ccccc1)C(Cl)(Cl)Cl (stereo not drawn) | inactive: -3.08%
64 | C[C@H]1OP(=O)(Oc2ccccc2)C[C@@H]2O[C@@H]21 (stereo partly drawn) | inactive: 7.95%
65 | C[C@@H]1C=CCP(=O)(Oc2ccccc2)O1 (stereo partly drawn) | inactive: -11.8%
66 | CC(=O)Nc1ccc([As](=O)(O)O)c(O)c1 | inactive: -11.3%
67 | CC(=O)Nc1ccc(Oc2c([N+](=O)[O-])cc([N+](=O)[O-])cc2[N+](=O)[O-])cc1 | inactive: -24.6%
68 | O=C(OC1CN2CCC1CC2)c1ccc(Cl)cc1 (stereo not drawn) | inactive: -0.968%
69 | O=[As](O)(O)c1cccnc1 | inactive: -7.04%
70 | COc1cc(C(=O)NCC2(N3CCOCC3)CCCCC2)cc(Cl)c1OC(C)C | inactive: -0.23%
71 | Cc1cccc(OCC(=O)OC2CN3CCC2CC3)c1 (stereo not drawn) | inactive: -1.98%
72 | O=[As](O)(c1cccc(O)c1)c1cccc(O)c1 | inactive: -7.66%
73 | Nc1cccc2c([As](=O)(O)O)cccc12 | inactive: -20.5%
74 | Cc1ccc(NCCc2c([N+](=O)[O-])cc([N+](=O)[O-])cc2[N+](=O)[O-])cc1 | inactive: 4.27%
75 | CCCOP(=S)(Nc1nc(N)cc(=O)[nH]1)OCCC | inactive: -5.87%
76 | COc1cc(C2NCCC3(OCCO3)C2(C)C)cc(OC)c1OC (stereo not drawn) | inactive: 21.6%
77 | CCOP(=O)(Nc1cccc2ccccc12)OCC | inactive: 4.14%
78 | CCOP1(=S)c2c(C)nn(CCC#N)c2N=C(c2ccccc2F)N1C (stereo not drawn) | inactive: 5.72%

Row | Structure (SMILES) | inhibition
79 | O=P(Nc1nccs1)(Oc1ccccc1)Oc1ccccc1 | inactive: 4.21%
80 | O=P(Nc1nccs1)(c1ccccc1)c1nc2ccccc2s1 (stereo not drawn) | active: 89.8%
81 | CS(=O)(=O)c1cc([N+](=O)[O-])c2no[n+]([O-])c2c1 | inactive: -31.8%
82 | Nc1ccccc1[As](=O)(O)c1ccccc1 | inactive: 2.78%
83 | O=C(O)COc1ccc([As](=O)(O)O)cc1[N+](=O)[O-] | inactive: -15.8%
84 | NC(=O)Nc1ccc([As](=O)(O)O)cc1 | inactive: -4.17%
85 | CCOP1(=S)c2c(C)nn(CCC#N)c2N=C(c2ccc(F)cc2)N1C (stereo not drawn) | inactive: 0.296%
86 | CN(C(=O)Cc1ccccc1)[C@@H]1CC[C@]2(CCCO2)C[C@H]1N1CCCC1 | inactive: -8.38%
87 | O=[N+]([O-])c1ccc2c(c1)nnn2O | inactive: -0.311%
88 | Cc1nn(-c2ccccc2)c2c1P(=O)(N1CCOCC1)N(C)C(c1ccccc1)=N2 (stereo not drawn) | inactive: 0.371%
89 | CC1CCC(C(C)C)C(OP(=O)(Nc2ccccn2)c2ccccc2)C1 (stereo not drawn) | inactive: -3.8%
90 | CN(C)C1(CNC(=O)c2ccc(S(C)(=O)=O)cc2)CCCCC1 | inactive: -5.39%
91 | O=C(/C=C/c1ccccc1)OC1CN2CCC1CC2 (stereo not drawn) | inactive: 1.31%
92 | O=P1(Nc2ncccn2)COc2ccccc2OC1 | inactive: -2.78%
93 | Nc1cccc([As](=O)(O)c2ccccc2)c1 | inactive: 3.79%
94 | O=[As](O)(c1cccs1)c1cccs1 | inactive: -9.25%
95 | Cc1ccc(OCC(=O)OC2CN3CCC2CC3)cc1 (stereo not drawn) | inactive: -0.275%
96 | O=P1(Nc2ccc(Br)cn2)COc2ccccc2OC1 | inactive: 2.71%
97 | O=P1(Nc2ccccn2)COc2ccccc2OC1 | inactive: 0.787%
98 | CCOP(=O)(Nc1ccc(C)cn1)OCC | inactive: -5.3%
99 | Clc1n[nH]nc1-c1nn[nH][15n]1 | inactive: 5.17%
100 | CC(C)(C)C(=O)NC(Sc1ncccn1)C(Cl)(Cl)Cl (stereo not drawn) | inactive: -12.2%
101 | CC(C)/C=N\N=C(\N)N[N+](=O)[O-] | inactive: 1.5%
102 | O=[As](O)(c1ccccc1Br)c1ccccc1Br | inactive: -1.6%
103 | CC1(CBr)Cn2c(nc3ccccc3c2=O)S1 (stereo not drawn) | inactive: -2.22%
